Measured values from PubChem BioAssay AID624414 (National Center for Advancing Translational Sciences (NCATS), 2012).
The entries are a selection whose mix differs from that of the whole data set. The source made the active and inactive calls. No stated cut-off is given here; in the data, active means activation above about 50%; inconclusive means mostly about 30% to 49%; inactive means weaker than that.

Sequences of proteins named here, by UniProt entry; tags and fusion partners are left off.
UniProt Q9GZU1, whole entry: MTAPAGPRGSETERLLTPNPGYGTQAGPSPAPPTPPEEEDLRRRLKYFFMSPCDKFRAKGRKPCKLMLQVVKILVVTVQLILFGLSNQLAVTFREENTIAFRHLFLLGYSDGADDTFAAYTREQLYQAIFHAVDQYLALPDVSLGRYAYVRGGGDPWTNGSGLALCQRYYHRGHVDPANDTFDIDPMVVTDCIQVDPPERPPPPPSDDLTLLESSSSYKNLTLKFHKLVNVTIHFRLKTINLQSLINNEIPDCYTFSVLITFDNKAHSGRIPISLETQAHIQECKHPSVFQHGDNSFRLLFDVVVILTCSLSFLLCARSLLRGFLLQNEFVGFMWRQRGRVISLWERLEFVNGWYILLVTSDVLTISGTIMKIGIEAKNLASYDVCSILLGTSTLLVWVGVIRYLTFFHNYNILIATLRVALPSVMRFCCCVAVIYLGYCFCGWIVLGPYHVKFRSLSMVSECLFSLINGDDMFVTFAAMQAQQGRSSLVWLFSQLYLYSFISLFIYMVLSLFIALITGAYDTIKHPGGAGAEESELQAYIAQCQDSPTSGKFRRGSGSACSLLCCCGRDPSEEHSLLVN

What follows are compounds tested against Mucolipin-1 (Homo sapiens) (UniProt Q9GZU1) (assay: qHTS for Agonists of the Human Mucolipin Transient Receptor Potential 1 (TRPML1)). Details: TRPML1-expressing cells, Ca2+ dye fluorescence, FDSS; hits give high values.
Description: Mutations of human Mucolipin transient receptor potential 1 (TRPML1) cause type IV mucolipidosis (ML4), a devastating neurodegenerative disease in young children. […] Currently, there is no treatment for ML4. […] Under physiological conditions, TRPMLs regulate membrane trafficking by transducing information about PI(3,5)P2 levels into changes in juxtaorganellar Ca2+, thereby triggering membrane fusion/fission events in the late endocytic pathways (endolysosomal trafficking). In addition, TRPML1 mediates release of Fe2+ from late endosomes and lysosomes, which is essential for cellular iron metabolism. Thus, impaired ion (Ca2+ and Fe2+) homeostasis underlies lysosomal dysfunction and ML4 phenotypes. In ML4 cells, the problem is twofold. First, defective Ca2+-dependent membrane trafficking due to TRPML1-deficiency causes accumulation of lipids and other bio-materials in the lysosome. The second strike comes from the lysosomal iron overload (due to impairment of TRPML1's Fe2+ conductivity), which converts the accumulated materials into the nondegradable (resistant to lysosomal degradation) lipofuscin (also called aging pigment) in the lysosome. Lipofuscin accumulation dramatically compromises the functions of lysosomes.
Niemann-Pick type C (NPC) disease is another lysosome storage disease (LSD) with severe neurodegeneration during the childhood. Currently, there is no cure for NPC. […] Thus, TRPML1 is likely to be an essential regulator of lysosome ion homeostasis. We specifically hypothesize that stimulating TRPML1's Fe2+/Ca2+ channel activity in the lysosome using synthetic agonists can alleviate neurodegeneration associated with ML4 or NPC.
To this end, a high throughput screen was developed in a miniaturized format to screen against the Molecular Libraries Small Molecule Repository (MLSMR) to find small molecules that act either as inhibitors or agonist against the TRPML1 channel.
NIH Chemical Genomics Center [NCGC]
NIH Molecular Libraries Probe Centers Network [MLPCN]
Assay Submitter (PI): Haoxing Xu, University of Michigan Ann Arbor
TRPML1-DL cells are dissociated from flasks, counted and, brought up to a density of 500,000 cells per mL of media containing a 1X Tet inducer. Using a Multidrop Combi, 3uL of this cell solution is dispensed to each well of a 1536 TC treated, black, clear bottom hi base plate for a final cell density of 1,500 cells per well. The assay plates are incubated overnight (approximately 16 hours) at 37 degrees C and 5% CO2. Using a Multidrop Combi, 2uL of ABD Ca8 no wash dye plus quencher is added to each well. The assay plates incubate at room temperature in the dark for 45-90 minutes. The assay plate is read on the FDSS using the following protocol: 10 second baseline read, 23nL of compounds and controls are added using 1536 pintool, agonist read for 110 seconds, 1 uL EC80 addition (4uM final 54-4 diluted in media), antagonist read for 110 seconds.
Further: 0% is about no effect.

| SMILES | activation |
| --- | --- |
| CN(C)C1(CNC(=O)c2ccc(S(C)(=O)=O)cc2)CCCCC1 | inactive: -0.176% |
| CC1=C2N=C(C=C3N=C(C(C)=C4[N-][C@@](C)([C@@H]5N=C1[C@](C)(CCC(=O)NC[C@@H](C)OP(=O)([O-])O[C@H]1[C@@H](O)[C@@H](n6cnc7cc(C)c(C)cc76)O[C@@H]1CO)[C@H]5CC(N)=O)[C@@](C)(CC(N)=O)[C@@H]4CCC(N)=O)[C@@](C)(CC(N)=O)[C@@H]3CCC(N)=O)C(C)(C)[C@@H]2CCC(N)=O.[C-]#N.[Co+3] | inactive: -0.252% |
| O=[N+]([O-])c1cc([N+](=O)[O-])c(Nc2nnnn2CCO)c([N+](=O)[O-])c1 | inactive: 1.13% |
| O=C(/C=C/c1ccccc1)OC1CN2CCC1CC2 (centres undefined) | inactive: 0.607% |
| CCCC1OP(=O)(Nc2ccccc2)OCC1CC (centres undefined) | inactive: 1.54% |
| Cc1nn(-c2ccccc2)c2c1P(=O)(N1CCOCC1)N(C)C(c1ccccc1)=N2 (centres undefined) | inactive: 0.536% |
| CC1CCC(C(C)C)C(OP(=O)(Nc2ccccn2)c2ccccc2)C1 (centres undefined) | inactive: 27.2% |
| Cc1ccc(C(=O)OC2CN3CCC2CC3)cc1 (centres undefined) | inactive: 1.86% |
| COc1cc([N+](=O)[O-])ccc1[N+](=O)[O-] | inactive: -0.824% |
| COc1cc(C2NCCC3(OCCO3)C2(C)C)cc(OC)c1OC.O=[N+]([O-])c1cc([N+](=O)[O-])c(O)c([N+](=O)[O-])c1 (centres undefined) | inactive: -0.137% |
| CCCOc1ccc(NP(C)(=O)Oc2ccc(Cl)cc2)cc1 (centres undefined) | inactive: 1.23% |
| Nc1cccc([As](=O)(O)c2ccccc2)c1 | inactive: -0.472% |
| CP(=O)(Nc1ccc(SC(F)(F)F)cc1)Oc1ccccc1 (centres undefined) | inactive: -0.14% |
| Cc1ccc(OCC(=O)OC2CN3CCC2CC3)cc1 (centres undefined) | inactive: 0.304% |
| O=[As](O)(c1cccs1)c1cccs1 | inactive: 0.0843% |
| O=P1(Nc2ccc(Br)cn2)COc2ccccc2OC1 | inactive: -0.645% |
| NS(=O)(=O)c1cccc(NC(=O)COC(=O)C(O)(c2ccccc2)c2ccccc2)c1 | inactive: -0.129% |
| COc1ccccc1OP(C)(=O)Nc1c(C)cccc1C (centres undefined) | inactive: 2.03% |
| CN1CCCCC1COC(=O)C1(O)c2ccccc2CCc2ccccc21 (centres undefined) | inactive: -0.257% |
| O=P1(Nc2ncccn2)COc2ccccc2OC1 | inactive: -0.389% |
| O=P1(N(CCCl)CCCl)NCCC(C(F)(F)F)O1 (centres undefined) | inactive: 0.245% |
| Clc1n[nH]nc1-c1nn[nH][15n]1 | inactive: -0.0925% |
| CN(Cc1cccnc1)C(=O)COc1ccc(Cl)c(Cl)c1.O=[N+]([O-])c1cc([N+](=O)[O-])c(O)c([N+](=O)[O-])c1 | inactive: -1.07% |

| SMILES | activation |
| --- | --- |
| CC(C)(C)C(=O)NC(Sc1ncccn1)C(Cl)(Cl)Cl (centres undefined) | inactive: -0.767% |
| O=P1(Nc2ccccn2)COc2ccccc2OC1 | inactive: 0.389% |
| CCC1=CC2Cc3nc4ccc(Cl)cc4c(N)c3C(C1)C2 (centres undefined) | inactive: 2.2% |
| O=C(O)C(O)c1ccc(N(CCCl)CCCl)cc1.c1ccncc1 (centres undefined) | inactive: 0.106% |
| O=[N+]([O-])c1cc([N+](=O)[O-])c(-n2nnc3ccccc32)c([N+](=O)[O-])c1 | inactive: -0.565% |
| CCOP(=O)(NC(=NC(C)c1ccccc1)NC(C)c1ccccc1)OCC (centres undefined) | inactive: 2.99% |
| Nc1ccc(CCCCOc2ccccc2)cc1.O=[N+]([O-])c1cc([N+](=O)[O-])c(O)c([N+](=O)[O-])c1 | inactive: -0.733% |
| CCOP(=O)(Nc1ccc(C)cn1)OCC | inactive: -0.506% |
| CN(CCCl)Cc1cc(Cl)c(NC2=NCCN2)c(Cl)c1 | inactive: 0.695% |
| Cc1ccc(S(=O)(=O)N(CCCN)CCCc2c(C)nc(N)[nH]c2=O)cc1.O=[N+]([O-])c1cc([N+](=O)[O-])c(O)c([N+](=O)[O-])c1 | inactive: -0.916% |
| CC(C)/C=N\N=C(\N)N[N+](=O)[O-] | inactive: -0.962% |
| CN(C(=O)Cc1ccc(Cl)c(Cl)c1)[C@@H]1CCCC[C@H]1N1CCCC1 | inactive: -0.174% |
| CC1(CBr)Cn2c(nc3ccccc3c2=O)S1 (centres undefined) | inactive: -0.249% |
| Cc1nc2ccc3ccccc3c2s1.O=[N+]([O-])c1cc([N+](=O)[O-])c(O)c([N+](=O)[O-])c1 | inactive: 0.417% |
| O=[N+]([O-])c1cc([N+](=O)[O-])c(-c2cnn(-c3ccccc3)c2)c([N+](=O)[O-])c1 | inactive: 0.843% |
| COc1ccccc1CNC(=O)COC(=O)C(O)(c1ccccc1)c1ccccc1 | inactive: 0.656% |
| Cc1cccc(OCC(=O)OC2CN3CCC2CC3)c1 (centres undefined) | inactive: 1.1% |
| O=[As](O)(c1cccc(O)c1)c1cccc(O)c1 | inactive: 0.553% |
| Cc1cc(C)cc(OP(C)(=O)Nc2ccc(C)cc2C)c1 (centres undefined) | inactive: 1.03% |
| CCOC(=O)c1ccc(NP(C)(=O)Oc2cc(C)cc(C)c2)cc1 (centres undefined) | inactive: -0.346% |
| O=C(OC1CN2CCC1CC2)c1ccc(Cl)cc1 (centres undefined) | inactive: -0.0405% |
| COc1cc(C(=O)NCC2(N3CCOCC3)CCCCC2)cc(Cl)c1OC(C)C | inactive: 1.71% |
| CS(=O)(=O)c1ccc(Cl)c(NC(=O)COC(=O)C(O)(c2ccccc2)c2ccccc2)c1 | inactive: 0.46% |

| SMILES | activation |
| --- | --- |
| CCOP(=O)(Nc1cccc2ccccc12)OCC | inactive: -0.0567% |
| Cc1cc(C)cc(OP(C)(=O)Nc2ccccn2)c1 (centres undefined) | inactive: 0.0659% |
| CP(=O)(Nc1cccc(Br)c1)Oc1ccccc1 (centres undefined) | inactive: -0.0726% |
| Cc1ccc(NCCc2c([N+](=O)[O-])cc([N+](=O)[O-])cc2[N+](=O)[O-])cc1 | inactive: -0.716% |
| Nc1cccc2c([As](=O)(O)O)cccc12 | inactive: 0.393% |
| Cc1ccc(C)c(NP(C)(=O)Oc2ccccc2)c1 (centres undefined) | inactive: -1.19% |
| CCCOP(=S)(Nc1nc(N)cc(=O)[nH]1)OCCC | inactive: 3.65% |
| Nc1ccccc1[As](=O)(O)c1ccccc1 | inactive: -0.382% |
| O=C(O)COc1ccc([As](=O)(O)O)cc1[N+](=O)[O-] | inactive: 0.0844% |
| CCOP1(=S)c2c(C)nn(CCC#N)c2N=C(c2ccccc2F)N1C (centres undefined) | inactive: 0.177% |
| O=P(Nc1nccs1)(Oc1ccccc1)Oc1ccccc1 | inactive: 0.479% |
| O=P(Nc1nccs1)(c1ccccc1)c1nc2ccccc2s1 (centres undefined) | inactive: 0.138% |
| CS(=O)(=O)c1cc([N+](=O)[O-])c2no[n+]([O-])c2c1 | inactive: 5.83% |
| N#CCCN(C(=O)COC(=O)C(O)(c1ccccc1)c1ccccc1)c1ccc(F)cc1 | inactive: 3.1% |
| CN(C(=O)Cc1ccccc1)[C@@H]1CC[C@]2(CCCO2)C[C@H]1N1CCCC1 | inactive: -0.348% |
| CCOP1(=S)c2c(C)nn(CCC#N)c2N=C(c2ccc(F)cc2)N1C (centres undefined) | inactive: 0.763% |
| O=[N+]([O-])c1ccc2c(c1)nnn2O | inactive: 0.953% |
| CN(C)C(=O)c1cc([N+](=O)[O-])cc2c1-c1c(cc([N+](=O)[O-])cc1[N+](=O)[O-])C2=O | inactive: 0.145% |
| CC1=NCCc2c1[nH]c1ccccc21.O=[N+]([O-])c1cc([N+](=O)[O-])c(O)c([N+](=O)[O-])c1 | inactive: -0.631% |
| CN(C(=O)Cc1ccc(Cl)c(Cl)c1)[C@H]1CC[C@@]2(CCCO2)C[C@@H]1N1CCCC1 | inactive: 0.626% |
| NC(=O)Nc1ccc([As](=O)(O)O)cc1 | inactive: -0.299% |
| [N-]=[N+]=NC1CCCCC1NC(=O)c1cc([N+](=O)[O-])cc([N+](=O)[O-])c1 (centres undefined) | inactive: -0.532% |
| Cc1ccc(OP(=O)(Nc2ccc([N+](=O)[O-])cn2)Oc2ccc(C)cc2)cc1 | inactive: 2.53% |

| SMILES | activation |
| --- | --- |
| CC(C)(C)c1ccc(OP(C)(=O)Nc2ccc(SC(F)(F)F)cc2)cc1 (centres undefined) | inactive: 15.7% |
| ClCCN(CCCl)c1ccc(CC2C=CC=C2)cc1 | inactive: 0.38% |
| Cc1cccc(C)c1OP(C)(N)=O (centres undefined) | inactive: 1% |
| O=[N+]([O-])c1ccc2c(c1)C=Nc1ccccc1O2 | inactive: 0.0548% |
| Cc1ccc2nc3c(c(C)c2c1)CC(C(Cl)Cl)S3 (centres undefined) | inactive: -0.0397% |
| O=[N+]([O-])c1cc([N+](=O)[O-])c(Nc2cccnc2)c([N+](=O)[O-])c1 | inactive: 3.1% |
| C[As](=O)(O)c1cccc(C(=O)O)c1 | inactive: 0.349% |
| O=[As](O)(c1ccc(O)cc1)c1ccccc1O | inactive: -0.305% |
| O=[N+]([O-])c1ccc(-c2cc([N+](=O)[O-])c(O)c([N+](=O)[O-])c2)cc1 | inactive: -0.293% |
| COc1cc(C(=O)NCC2(N3CCOCC3)CCCCC2)ccc1OCC(C)C | inactive: 0.18% |
| COc1ccccc1OP(C)(=O)Nc1cc(Cl)ccc1C (centres undefined) | inactive: 0.932% |
| CC(C)NC(=O)NP(=O)(Oc1ccccc1)Oc1ccccc1 | inactive: -0.648% |
| CCN(CC)C(=S)SC(NC=O)C(Cl)(Cl)Cl (centres undefined) | inactive: -0.618% |
| O=C(OC1CN2CCC1CC2)c1cccc2[nH]cnc12 (centres undefined) | inactive: 1.06% |
| COc1ccc(OP(C)(=O)Nc2cccc(F)c2)cc1 (centres undefined) | inactive: -0.46% |
| O=[N+]([O-])c1cc([N+](=O)[O-])c(-c2ccn[nH]2)s1 | inactive: 0.827% |
| Cc1cc(C)cc(OP(C)(N)=O)c1 (centres undefined) | inactive: -0.855% |
| CCOC(=O)c1ccc(NP(C)(=O)Oc2ccccc2)cc1 (centres undefined) | inactive: 0.842% |
| ClCCSc1nnc(-c2cccnc2)o1 | inactive: -0.145% |
| O=Cc1ccc(NCCCl)cc1 | inactive: -0.887% |
